A mixed list of measured activities; the numbers were collected in NIAID ChemDB.

Shared fields: growth or infection tests; organism: Candida albicans; read-out: MIC

An empty or dashed field is not shown.

{"SMILES": "Clc1ccc(OCCC(Cn2ccnc2)c2ccc(Cl)cc2Cl)c(Cl)c1", "result": "100 µg/mL"}
{"SMILES": "CN(C)CCSC(=S)NCc1ccc(Br)cc1", "result": "15 µg/mL"}
{"SMILES": "O=c1cc(-c2ccc(O)c(O)c2)oc2cc(O)c([C@@H]3O[C@H](CO)[C@@H](O)[C@H](O)[C@H]3O)c(O)c12", "strain": "ATCC 18804", "read by": "broth dilution", "result": ">500 µg/mL"}
{"SMILES": "CC1(c2ccc(Cl)cc2)OCC(CO/N=C(\\Cn2ccnc2)c2ccc(Cl)cc2)O1", "result": "≤10 µg/mL"}
{"SMILES": "CCCCNC(=O)c1ccc[nH]c1=S", "result": "20 µg/mL"}
{"SMILES": "CCC(C)CC(C)CCCCCCCCC(=O)N[C@H]1C[C@@H](O)[C@H](NCCN)NC(=O)[C@@H]2[C@@H](O)CCN2C(=O)[C@H]([C@H](O)CCN)NC(=O)[C@H]([C@H](O)[C@@H](O)c2ccc(O)cc2)NC(=O)[C@@H]2C[C@@H](O)CN2C(=O)[C@H]([C@@H](C)O)NC1=O", "strain": "17433", "read by": "broth dilution", "result": "0.015 µg/mL"}
{"SMILES": "COc1ccccc1-c1nc2ccccc2n1C(=O)c1ccc([N+](=O)[O-])cc1", "result": "8 µg/mL"}
{"SMILES": "C=C1C(=O)OC2C1CC=C(C)C1CCC(=C)C12", "strain": "MTCC 227", "read by": "agar diffusion", "result": ">250 µg/mL"}
{"SMILES": "COCc1ccc(O)c(N=Nc2nc3ccccc3[nH]2)c1", "read by": "agar", "result": "<0.016 µg/mL"}
{"SMILES": "N=C(N)c1ccc2[nH]c(/C=C/c3cc4cc(C(=N)N)ccc4o3)cc2c1", "result": "30 µg/mL"}
{"SMILES": "CN1CCN(CCSC(=S)NCc2ccc(Cl)cc2)CC1", "result": "1000 µg/mL"}
{"SMILES": "c1cc(-c2cc3ccc(C4=NCCN4)cc3[nH]2)ccc1C1=NCCN1", "result": ">60 µg/mL"}
{"SMILES": "C=C1/C=C(\\C)[C@H](CC)OC(=O)[C@H](C)C(=O)C(O)(CO)C/C(OC)=C/[C@@H](C)C1", "strain": "MY1055", "result": "6.25 µg/mL"}
{"SMILES": "O=c1[nH]c(O)c(N=Nc2nc3ccccc3[nH]2)c(=O)[nH]1", "read by": "agar", "result": "<0.016 µg/mL"}
{"SMILES": "O=C(N[C@H](Cc1cn(Cc2ccccc2)nn1)C(=O)OCc1cn(Cc2ccccc2)nn1)OCc1ccccc1", "strain": "MTCC 183", "result": "10.3 µM"}
{"SMILES": "C[C@H]1[C@H](O)[C@@H](C)/C=C/C=C/C=C/C=C/C=C/C=C/C=C/[C@H](O[C@@H]2O[C@H](C)[C@@H](O)[C@H](N)[C@@H]2O)C[C@@H]2O[C@](O)(C[C@@H](O)C[C@@H](O)CC[C@H](O)[C@@H](O)C[C@@H](O)CC(=O)O[C@H]1C)C[C@H](O)[C@H]2C(=O)O", "result": "8 µg/mL"}
{"SMILES": "Cc1cc(-c2cc(C)n(CCO)n2)no1", "result": ">200 µM"}
{"SMILES": "CCn1c(=S)[nH]c2c(sc(=S)n2-c2ccccc2)c1=O", "strain": "ATCC 90018", "result": "32 µg/mL"}
{"SMILES": "COc1cccc(C(=O)Nc2ccc(C)cc2O)c1OC", "result": "2 µM"}
{"SMILES": "CCCCCCCCCC(=O)NC(CCCN)C(=O)NC(CCCN)C(=O)NC(CCCN)C(=O)NC(CCCN)C(=O)NC(CCCN)C(N)=O", "strain": "ATCC 24433", "read by": "broth dilution", "result": "100 µg/mL"}
{"SMILES": "CCCCCCN=c1ssc2ncccc12", "result": "25 µg/mL"}
{"SMILES": "Cc1ccc(C(=O)Nc2ccc(C)cc2O)c(C)c1", "result": "25 µM"}
{"SMILES": "N#Cc1ccc(/C=N/Nc2ccnc3cc(Cl)ccc23)cc1", "result": ">200 µg/mL"}
{"SMILES": "CCCCCCCCCCCCCC(=O)NC(CCCN)C(=O)NC(CCCN)C(=O)NC(CCCN)C(=O)NC(CCCN)C(=O)NC(CCCN)C(N)=O", "strain": "ATCC 24433", "read by": "broth dilution", "result": "6.25 µg/mL"}
{"SMILES": "CCCCC[C@@H]1CC[C@H](C)CCCCC(=O)N(C)[C@@H](Cc2ccc(OCCO)cc2)C(=O)O1", "strain": "TIMM1768", "result": "32 µg/mL"}
{"SMILES": "Clc1ccc(C(COc2ccc(Cl)cc2Cl)Cn2ccnc2)cc1", "result": "10 µg/mL"}
{"SMILES": "O=C(N[C@H](Cc1cn(Cc2ccc([N+](=O)[O-])cc2)nn1)C(=O)OCc1cn(Cc2ccc([N+](=O)[O-])cc2)nn1)OCc1ccccc1", "strain": "MTCC 183", "result": "8.9 µM"}
{"SMILES": "CN1CCN(CCSC(=S)NCc2ccc(Cl)c(Cl)c2)CC1", "result": "100 µg/mL"}
{"SMILES": "CCCCCCCC/C=C/CC/C=C/[C@H]1C[C@H]([C@](O)(CC(=O)O[C@@H](C(=O)O)[C@H](CC(=O)O)C(=O)O)C(=O)O)C(=O)O1", "result": "0.43 µM"}
{"SMILES": "Cc1cccc(Cn2cc(COC(=O)[C@@H](Cc3cn(Cc4cccc(C)c4)nn3)NC(=O)OCc3ccccc3)nn2)c1", "strain": "MTCC 183", "result": "9.8 µM"}
{"SMILES": "Cn1c(SCC(=O)c2ccc(Br)cc2)nc2c(sc(=S)n2-c2ccccc2)c1=O", "strain": "ATCC 90018", "result": "64 µg/mL"}
{"SMILES": "CN(C)CNc1ccc(-c2cc3cc(NCN(C)C)ccc3o2)cc1", "result": ">60 µg/mL"}
{"SMILES": "O=C(c1ccc([N+](=O)[O-])cc1)n1c(-c2ccccc2)nc2ccccc21", "result": "9 µg/mL"}
{"SMILES": "Cc1ccc(NC(=O)c2cc(C)ccc2C)c(O)c1", "result": "50 µM"}
{"SMILES": "CC1(C)OCC(CO/N=C(\\Cn2ccnc2)c2ccc(Cl)cc2)O1", "result": "≤10 µg/mL"}
{"SMILES": "Cc1c(O)cccc1C(=O)N[C@@H](CSc1ccccc1)[C@H](O)CN1C[C@H]2CCCC[C@H]2C[C@H]1C(=O)NC(C)(C)C", "strain": "I5F", "result": ">64 µg/mL"}
{"SMILES": "O=C(c1ccccc1Br)n1c(-c2ccc([N+](=O)[O-])cc2)nc2ccccc21", "result": "7 µg/mL"}
{"SMILES": "Cn1c(SCC(=O)c2ccc(Cl)cc2)nc2c(sc(=S)n2-c2ccccc2)c1=O", "strain": "ATCC 90018", "result": ">512 µg/mL"}
{"SMILES": "Clc1ccc(C(CCOc2ccc(Br)cc2)Cn2ccnc2)c(Cl)c1", "result": "<10 µg/mL"}
{"SMILES": "O=C(O)c1ccccc1-c1nc2ccccc2n1C(=O)c1ccccc1Br", "result": "30 µg/mL"}
{"SMILES": "CC1=CCC2C(C)(C)CCCC2(C)C1CN=C(C)N", "read by": "broth dilution", "result": "32 µg/mL"}
{"SMILES": "Cc1ccc(NC(=O)Cc2ccc([N+](=O)[O-])cc2)c(O)c1", "result": "25 µM"}
{"SMILES": "O=C(OCC=Nc1nc2ccccc2[nH]1)c1ccccc1Nc1ccnc2c(C(F)(F)F)cccc12", "read by": "agar", "result": "<0.016 µg/mL"}
{"SMILES": "CCN(CC)CCSC(=S)NCc1cc(C)ccc1C", "result": "100 µg/mL"}
{"SMILES": "CCCCCCCC(=O)NC(CCCN)C(=O)NC(CCCN)C(=O)NC(CCCN)C(=O)NC(CCCN)C(=O)NC(CCCN)C(N)=O", "strain": "ATCC 24433", "read by": "broth dilution", "result": ">100 µg/mL"}
{"SMILES": "O=C(O)c1n[nH]c2nc3ccccc3n2c1=O", "read by": "agar", "result": "<0.016 µg/mL"}
{"SMILES": "CN(C)CCSC(=S)NCc1cccc(C(F)(F)F)c1", "result": "100 µg/mL"}
{"SMILES": "CCCCCOc1ccc(-c2ccc(-c3ccc(C(=O)N[C@H]4C[C@@H](O)[C@@H](O)NC(=O)[C@@H]5[C@@H](O)[C@@H](C)CN5C(=O)[C@H]([C@H](C)O)NC(=O)[C@H]([C@H](O)[C@@H](O)c5ccc(O)cc5)NC(=O)[C@@H]5C[C@@H](O)CN5C(=O)[C@H]([C@H](C)O)NC4=O)cc3)cc2)cc1", "strain": "94-93", "result": "0.008 µg/mL"}
{"SMILES": "O=C(c1ccc([N+](=O)[O-])cc1)n1c(-c2ccccc2Cl)nc2ccccc21", "result": "17 µg/mL"}
{"SMILES": "Nc1cccc(-c2cn(CC(Oc3ccc(Cl)cc3)c3ccc(Cl)cc3Cl)nn2)c1", "strain": "ATCC90027", "read by": "broth dilution", "result": ">256 µg/mL"}
{"SMILES": "CCn1nc(C)cc1-c1cc(C)on1", "result": ">200 µM"}
{"SMILES": "CCn1c(SCC(=O)c2ccccc2)nc2c(sc(=S)n2-c2ccccc2)c1=O", "strain": "ATCC 90018", "result": "64 µg/mL"}
{"SMILES": "CC(C)(C)COC(=O)N[C@H](Cc1cn(Cc2ccccc2[N+](=O)[O-])nn1)C(=O)OCc1cn(Cc2ccccc2[N+](=O)[O-])nn1", "strain": "MTCC 183", "result": "18.4 µM"}
{"SMILES": "CCC(NC(=S)SCCN(C)C)c1ccccc1", "result": "20 µg/mL"}
{"SMILES": "COc1cc(O)c2c(c1)C(=O)c1c(cc3c(c1O)-c1c(cc(C)c(C(=O)NC(CO)C(=O)O)c1O)[C@H](OC1OC(C)C(O)C(OC4OCC(O)C(O)C4O)C1O)C3O)C2=O", "strain": "DARL82/003 (azole-resistant)", "result": "2 µg/mL"}
{"SMILES": "O=c1[nH]c(=S)[nH]c(O)c1N=Nc1nc2ccccc2[nH]1", "read by": "agar", "result": "<0.016 µg/mL"}
{"SMILES": "N=C(N)c1ccc(Oc2ccc(/C=C/c3cc4cc(C(=N)N)ccc4o3)cc2)cc1", "result": ">60 µg/mL"}
{"SMILES": "N#Cc1ccccc1/C=N/Nc1ccnc2cc(Cl)ccc12", "result": "100 µg/mL"}
{"SMILES": "Clc1ccc(OCCC(Cn2ccnc2)c2ccc(Cl)cc2Cl)cc1", "result": "10 µg/mL"}
{"SMILES": "Cc1ccc(NC(=O)c2ccc(C(C)(C)C)cc2)c(O)c1", "result": "25 µM"}
{"SMILES": "CCCn1sc2ncccc2c1=S", "result": "25 µg/mL"}
{"SMILES": "CCCCCCCCCCCC(=O)NC(CCCN)C(N)=O", "strain": "ATCC 24433", "read by": "broth dilution", "result": ">100 µg/mL"}
{"SMILES": "Cc1cc(-c2nn(C)c(C)c2N=O)no1", "result": ">200 µM"}
{"SMILES": "CCCCCN=c1ssc2ncccc12", "result": "30 µg/mL"}
{"SMILES": "Cc1ccc(NC(=O)Cc2ccc(Br)cc2)c(O)c1", "result": "12.5 µM"}
{"SMILES": "O=C(c1ccccc1Br)n1c(-c2ccccc2[N+](=O)[O-])nc2ccccc21", "result": "15 µg/mL"}
{"SMILES": "CN(C)CCSC(=S)NCc1ccc(Cl)c(Cl)c1", "result": "10 µg/mL"}
{"SMILES": "CC1(c2ccc(Cl)cc2Cl)OCC(CO/N=C(\\Cn2ccnc2)c2ccccc2)O1", "result": "≤10 µg/mL"}
{"SMILES": "O=C(c1ccc([N+](=O)[O-])cc1)n1c(-c2cccc(Cl)c2)nc2ccccc21", "result": "17 µg/mL"}
{"SMILES": "CC1(c2ccc(Cl)cc2Cl)OCC(CO/N=C(\\Cn2ccnc2)c2ccc(Cl)cc2Cl)O1", "result": "≤10 µg/mL"}
{"SMILES": "CC1(C)CC(=O)C(N=Nc2nc3ccccc3[nH]2)=C(O)C1", "read by": "agar", "result": "<0.016 µg/mL"}
{"SMILES": "CCn1nc(-c2cc(C)on2)c(N=O)c1C", "result": "66 µM"}
{"SMILES": "CCCCCn1sc2ncccc2c1=O", "result": "20 µg/mL"}
{"SMILES": "CCCCCCCC(=O)NC(CCCN)C(N)=O", "strain": "ATCC 24433", "read by": "broth dilution", "result": ">100 µg/mL"}
{"SMILES": "Clc1ccc(C(Cn2ccnc2)OCc2csc3c(Cl)cccc23)c(Cl)c1", "strain": "15 strains", "result": "2 µg/mL"}
{"SMILES": "CC(C)(C)COC(=O)N[C@H](Cc1cn(Cc2ccc([N+](=O)[O-])cc2)nn1)C(=O)OCc1cn(Cc2ccc([N+](=O)[O-])cc2)nn1", "strain": "MTCC 183", "result": "18.4 µM"}
{"SMILES": "Fc1cccc(/C=N/Nc2ccnc3cc(Cl)ccc23)c1", "result": ">200 µg/mL"}
{"SMILES": "C[N+](C)(C)CCOP(=O)([O-])OCCCCCCCCCCCCCCCCCCCCCCOP(=O)([O-])OCC[N+](C)(C)C", "result": "1.25 µg/mL"}
{"SMILES": "COc1ccccc1C(=O)Nc1ccc([N+](=O)[O-])cc1O", "result": "25 µM"}
{"SMILES": "O=C(NCCCc1ccccc1)c1ccc[nH]c1=S", "result": "5 µg/mL"}
{"SMILES": "Cn1c(=S)[nH]c2c(sc(=S)n2-c2ccccc2)c1=O", "strain": "ATCC 90018", "result": "4 µg/mL"}
{"SMILES": "CCOC(=O)C(=NNc1nc2ccccc2[nH]1)C(=O)OCC", "read by": "agar", "result": "<0.016 µg/mL"}
{"SMILES": "C=C1CC[C@H](OC(=O)C=C(C)C)C(C)(C)C1CCc1ccc2c(c1)C(=O)C1OC1C2=O", "result": ">50 µg/mL"}

The last 7 rows once more:

SMILES,strain,read by,result
Fc1cccc(/C=N/Nc2ccnc3cc(Cl)ccc23)c1,,,>200 µg/mL
C[N+](C)(C)CCOP(=O)([O-])OCCCCCCCCCCCCCCCCCCCCCCOP(=O)([O-])OCC[N+](C)(C)C,,,1.25 µg/mL
COc1ccccc1C(=O)Nc1ccc([N+](=O)[O-])cc1O,,,25 µM
O=C(NCCCc1ccccc1)c1ccc[nH]c1=S,,,5 µg/mL
Cn1c(=S)[nH]c2c(sc(=S)n2-c2ccccc2)c1=O,ATCC 90018,,4 µg/mL
CCOC(=O)C(=NNc1nc2ccccc2[nH]1)C(=O)OCC,,agar,<0.016 µg/mL
C=C1CC[C@H](OC(=O)C=C(C)C)C(C)(C)C1CCc1ccc2c(c1)C(=O)C1OC1C2=O,,,>50 µg/mL

Lines come from different laboratories, so protocols vary.